Data as given in PubChem BioAssay AID1259414 (Drosophila RNAi Screening Center, 2018).

- Aim: 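Fly genes that alter Wolbachia amount inside host cells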 (primary screen)
- Cell system: Drosophila JW18 cells infected with Wolbachia
- Reagents: long dsRNA against Drosophila genes, 0.25 µg dsRNA per well of a 384-well plate
- Time to read-out: 5 days
- Challenge: cells persistently infected with Wolbachia before knock-down; no added drug
- Detection: 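Imaged fluorescence in situ signal for Wolbachia 23S rRNA per DAPI-counted host cell, given as a robust z-score within each plate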
- Reading the numbers: Wolbachia per cell robust z: higher = more Wolbachia per host cell than the plate typical
- Hit rule: 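Hit when robust z is 1.5 or more, or -1.5 or less, in at least two of three replicates; excludes dsRNAs with several or no targets, genes not expressed in JW18 and well A1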
In all, the deposit lists about 24,000 reagents; below is an unselected part of those that have a named target and a result. Of all reagents, about 1,210 (5%) are marked active. 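Inactive calls also include excluded dsRNAs with several or no targets, genes unexpressed in JW18, and well A1, regardless of score.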 Reagents against one gene are numbered here. Names joined by + are all predicted targets of the reagent.

no.	gene	reagent	Wolbachia per cell robust z, rep 1	Wolbachia per cell robust z, rep 2	Wolbachia per cell robust z, rep 3	Outcome
1	CG32450 (GeneID 318034)	1	-0.589	-0.512	-1.15	inactive
2	AOX3 (GeneID 41896)	1	-0.727	-2.19	-0.917	inactive
3	CG7882 (GeneID 35520)	1	-0.539	-1.31	-0.326	inactive
4	CG14711 + Zaf1	1	-5.63	-0.287	-5.79	inactive
5	CG14711 + Zaf1	2	-0.605	0.0326	-0.536	inactive
6	veli (GeneID 43003)	1	-2.52	-0.0218	0.213	inactive
7	veli (GeneID 43003)	2	-0.988	-0.729	-0.88	inactive
8	Gp93 (GeneID 43354)	1	-1.54	-0.309	-0.232	inactive
9	Gp93 (GeneID 43354)	2	-0.0477	-2.65	-1.66	active
10	dor (GeneID 31118)	1	-0.661	-0.963	-0.684	inactive
11	dor (GeneID 31118)	2	0.0414	0.912	-0.355	inactive
12	Agpat4 (GeneID 39819)	1	-0.0927	0.408	0.944	inactive
13	Agpat4 (GeneID 39819)	2	-8.41	-0.118	-0.128	inactive
14	MED16 (GeneID 37535)	1	0.0413	-0.0558	0.487	inactive
15	MED16 (GeneID 37535)	2	0.0375	0.455	1.7	inactive
16	siz (GeneID 40327)	1	0.582	0.827	-5.77	inactive
17	siz (GeneID 40327)	2	0.155	-0.545	0.635	inactive
18	siz (GeneID 40327)	3	-0.0407	0.599	0.363	inactive
19	CG6083 (GeneID 39305)	1	-0.0626	-0.396	1.17	inactive
20	CG6083 (GeneID 39305)	2	0.876	0.0897	-2.36	inactive
21	pAbp (GeneID 37070)	1	3.13	-2.67	5.04	active
22	TM9SF3 (GeneID 38635)	1	1.04	0.577	0.941	inactive
23	CG13616 (GeneID 42917)	1	0.673	0.0289	-4.98	inactive
24	CG3703 (GeneID 31045)	1	0.0673	0.277	-0.641	inactive
25	CG3703 (GeneID 31045)	2	-5.04	0.547	-0.718	inactive
26	CG3703 (GeneID 31045)	3	0.105	-3.94	0.152	inactive
27	l(2)k10201 + CG33774	1	-1.55	1.63	0.242	inactive
28	CG6276 (GeneID 41855)	1	-0.428	-0.0319	-0.222	inactive
29	CG6276 (GeneID 41855)	2	-0.306	-0.826	-11.3	inactive
30	Dop1R2 (GeneID 43484)	1	-0.134	0.186	-0.325	inactive
31	Dop1R2 (GeneID 43484)	2	-1.99	0.635	0.317	inactive
32	Dop1R2 (GeneID 43484)	3	0.798	1.05	1.09	inactive
33	CG12099 (GeneID 38181)	1	-3.82	0.0375	-2.74	active
34	Bap111 (GeneID 31846)	1	1.79	0.28	1.33	inactive
35	Bap111 (GeneID 31846)	2	1.07	-0.501	0.572	inactive
36	CG7896 (GeneID 43552)	1	-0.221	-0.513	0.278	inactive
37	CG8915 (GeneID 32715)	1	-3.4	-0.374	0.443	inactive
38	CG5721 (GeneID 37084)	1	0.493	-0.752	-0.745	inactive

The list goes on, starting with the last 2 of the part before.
no.	gene	reagent	Wolbachia per cell robust z, rep 1	Wolbachia per cell robust z, rep 2	Wolbachia per cell robust z, rep 3	Outcome
37	CG8915 (GeneID 32715)	1	-3.4	-0.374	0.443	inactive
38	CG5721 (GeneID 37084)	1	0.493	-0.752	-0.745	inactive
39	CG10274 (GeneID 38716)	1	0.659	0.566	0.959	inactive
40	CG10274 (GeneID 38716)	2	-0.694	0.187	0.135	inactive
41	CG32102 (GeneID 317854)	1	0.496	0.395	-0.186	inactive
42	Nubp1 (GeneID 35000)	1	-2.01	-0.354	0.133	inactive
43	PolI (GeneID 40965)	1	-0.505	-1.79	-0.699	inactive
44	Cht6 (GeneID 31935)	1	0.595	-4.62	1.2	inactive
45	Cht6 (GeneID 31935)	2	0.361	0.564	-0.277	inactive
46	Cht6 (GeneID 31935)	3	-1.37	0.271	1.08	inactive
47	Cht6 (GeneID 31935)	4	-0.553	0.314	-0.783	inactive
48	CR9337 (GeneID 3885658)	1	0.619	1.14	0.412	inactive
49	CR9337 (GeneID 3885658)	2	-0.553	-0.0298	0.832	inactive
50	CG5819 (GeneID 37547)	1	-0.783	-0.297	-0.335	inactive
51	CG5819 (GeneID 37547)	2	0.839	1.01	0.692	inactive
52	CG8303 (GeneID 36858)	1	-1.1	0.285	0.239	inactive
53	Cyp4d14 (GeneID 45706)	1	0.243	-1.62	-0.0673	inactive
54	Cyp4d14 (GeneID 45706)	2	0.65	-0.604	0.725	inactive
55	CG9067 (GeneID 36197)	1	0.173	0.688	-0.724	inactive
56	Amph (GeneID 36383)	1	0.477	-6.7	-3.81	active
57	Amph (GeneID 36383)	2	-0.508	0.361	0.787	inactive
58	CG34207 (GeneID 5740143)	1	-7.07	-2.79	0.00133	inactive
59	Sec24AB (GeneID 36025)	1	-5.39	0.193	-0.448	inactive
60	Sec24AB (GeneID 36025)	2	-4.09	1.13	-0.857	inactive
61	Nep7 (GeneID 43356)	1	0.767	0.623	0.043	inactive
62	Nep7 (GeneID 43356)	2	-0.704	0.647	0.668	inactive
63	CG14182 (GeneID 40181)	1	-2.25	-1.75	1.14	active
64	CG3815 (GeneID 31571)	1	-0.888	0.774	-0.384	inactive
65	CG3815 (GeneID 31571)	2	-0.476	-0.296	-0.0435	inactive
66	CG3815 (GeneID 31571)	3	-1.84	-2.99	-1.19	active
67	PGRP-LB (GeneID 41379)	1	-1.81	-5.53	-0.677	active
68	crn (GeneID 31208)	1	1.56	3.36	2.57	active
69	crn (GeneID 31208)	2	2.01	2.69	2.51	active
70	crn (GeneID 31208)	3	1.96	-4.47	2.08	active
